Reference: patent publication US20150031020

Biological target: α-HL M113R/N139Q (HL-RQ) monomer, Staphylococcus aureus

With HL-RQC-EcoExoIII-L1-H6 the result was “binds”.
